Pooled drug test results. Numbers come from NIAID ChemDB, via PubChem.

All rows: whole-cell or culture tests

Inhibition is in % at the dose shown (toxicity tests: loss of growth or viability). A number after MIC or MFC names an inhibition level or a share of isolates. Lines come from different laboratories, so protocols vary. Zones are inhibition diameters on agar. Fold resistance: result on the changed form divided by that on wild type. ECn: concentration that inhibits the pathogen or its effect by n%.

CCC(C)n1ncn(-c2ccc(N3CCN(c4ccc(OC[C@H]5CO[C@](Cn6cncn6)(c6ccc(Cl)cc6Cl)O5)cc4)CC3)cc2)c1=O ; strain or isolate: 24 clinical isolates ; organism: Candida guilliermondii ; read-out: MIC90 ; read by: broth dilution ; value: 0.25 µg/mL
O=c1[nH]c(=O)n([C@H]2C[C@H](O)[C@@H](CO)O2)cc1/C=C/Br ; strain or isolate: GS ; organism: Human herpesvirus 6 ; cell line: HSB-2 ; read-out: EC50 ; read by: antigen / flow cytometry ; value: >1 µM
C#CC[C@@H](C(=O)N[C@H](/C=C/C(=O)OCC)C[C@@H]1CCNC1=O)n1cccc(NC(=O)c2cc(C)on2)c1=O ; strain or isolate: Clinical isolate 119 (serotype 39) ; tested at: 0.149 µM ; organism: Rhinovirus ; cell line: H1-HELA ; read-out: inhibition ; read by: cytopathic effect / XTT ; value: 90%
Nc1ncnc2c1ncn2C[C@@H](CO)OCP(=O)(O)O ; tested at: 0.01 µM ; organism: Epstein-Barr virus ; cell line: P3HR-1 ; read-out: inhibition ; value: 4%
O=C(O)P(=O)(O)O ; strain or isolate: AD169 ; organism: Cytomegalovirus ; cell line: HEL ; read-out: EC50 ; read by: plaque count ; value: 15 µg/mL
O=C(Nc1ccc(C(F)(F)F)cc1)c1cc(Br)ccc1OP(=O)(OCc1ccccc1)OCc1ccccc1 ; strain or isolate: My 6509/96 ; organism: Mycobacterium kansasii ; read-out: MIC ; conditions: 7 d ; value: 8 µM
CC1=CC(=O)c2c(O)cccc2C1=O ; tested at: 1 µg/mL ; organism: Encephalitozoon intestinalis ; cell line: RK-13 ; read-out: inhibition ; value: 64.9%
Nc1ccn([C@@H]2CS[C@H](CO)O2)c(=O)n1 ; strain or isolate: WILD TYPE ; organism: Duck hepatitis B virus ; cell line: HepG2 ; read-out: EC50 ; value: 0.033 µM
C#C[C@]1(CO)O[C@@H](n2cnc3c(N)nc(F)nc32)CC1O ; strain or isolate: ROD9 ; organism: HIV-2 ; mutations: Q151M ; cell line: MAGIC-5A ; read-out: fold resistance ; read by: β-galactosidase / absorbance ; value: 1
CCOC(=O)Nc1cc2c(c(N)n1)N=C(c1cccc(OC)c1)CO2 ; tested at: 1 µg/mL ; organism: Encephalitozoon intestinalis ; cell line: RK-13 ; read-out: inhibition ; value: 70.6%
C[C@@H]1CN(c2c(F)c(N)c3c(=O)c(C(=O)O)cn(C4CC4)c3c2F)C[C@H](C)N1 ; strain or isolate: 26 ; organism: Mycobacterium avium complex ; read-out: MIC ; read by: broth dilution ; value: 1 µg/mL
COc1ccc(-c2oc3c(CC=C(C)C)c(OC4O[C@H](CO)[C@@H](O)[C@H](O)[C@H]4O)cc(O)c3c(=O)c2O[C@@H]2O[C@@H](C)[C@H](O)[C@@H](O)[C@H]2O)cc1 ; strain or isolate: MAC251 ; organism: SIV ; cell line: CEMx174 ; read-out: EC50 ; read by: PCR ; value: 6.757 µM
Nc1ncnc2c1ncn2CCOCP(=O)(O)O ; tested at: 100 µM ; organism: Epstein-Barr virus ; cell line: P3HR-1 ; read-out: inhibition ; value: 8%
Nc1ncnc2c1ncn2CCOCP(=O)(O)O ; organism: Duck hepatitis B virus ; cell line: Primary duck hepatocytes ; read-out: EC90 ; read by: hybridisation ; value: 0.36 µM
CO[C@H]1/C=C/O[C@@]2(C)Oc3c(C)c(O)c4c(O)c(c(/C=N/N5CCN(C)CC5)c(O)c4c3C2=O)NC(=O)/C(C)=C\C=C\[C@H](C)[C@H](O)[C@@H](C)[C@@H](O)[C@@H](C)[C@H](OC(C)=O)[C@@H]1C ; strain or isolate: ATCC 29213 ; organism: Staphylococcus aureus ; read-out: MIC ; value: 0.0078 µg/mL
O=C1c2cc(Cl)ccc2OP(=O)(c2ccccc2)N1c1ccc(Cl)c(Cl)c1 ; strain or isolate: My 6509/96 ; organism: Mycobacterium kansasii ; read-out: MIC ; conditions: 7 d ; value: 16 µM
N#CC[C@H](C1CCCC1)n1cc(-c2ncnc3[nH]ccc23)cn1 ; organism: SHIV ; cell line: PBMC ; read-out: EC90 ; read by: p24 / ELISA ; value: 1.3 µM
Nc1ncc2ncn(CCOCP(=O)(O)O)c2n1 ; strain or isolate: AD169 ; organism: Cytomegalovirus ; cell line: HEL ; read-out: EC50 ; read by: plaque count ; value: 200 µg/mL
NC(=O)c1nc(F)c[nH]c1=O ; strain or isolate: MIE/1/93 ; organism: Influenza B virus ; cell line: MDCK ; read-out: EC50 ; read by: plaque count ; value: 0.039 µg/mL
CO[C@H]1/C=C/O[C@@]2(C)Oc3c(C)c(O)c4c(O)c(c5c(c4c3C2=O)NC2(CCN(CC(C)C)CC2)N=5)=NC(=O)/C(C)=C\C=C\[C@H](C)[C@H](O)[C@@H](C)[C@@H](O)[C@@H](C)[C@H](OC(C)=O)[C@@H]1C ; strain or isolate: 20 strains (methicillin-susceptible) ; organism: Staphylococcus aureus ; read-out: MIC50 ; value: 0.016 µg/mL
Cc1cn(C[C@@H](CO)OCP(=O)(O)O)c(=O)[nH]c1=O ; strain or isolate: AD169 ; organism: Cytomegalovirus ; cell line: HEL ; read-out: EC50 ; read by: cytopathic effect ; value: 200 µg/mL
O=C(Nc1ccc(Cl)cc1)c1cc(Cl)ccc1OP(=O)(OCc1ccccc1)OCc1ccccc1 ; strain or isolate: My 235/80 ; organism: Mycobacterium kansasii ; read-out: MIC ; conditions: 7 d ; value: 16 µM
Nc1nc(N)c2ncn(CCOCP(=O)(O)O)c2n1 ; strain or isolate: DAVIS ; organism: Cytomegalovirus ; cell line: HEL ; read-out: EC50 ; read by: plaque count ; value: 10 µg/mL
CCCSc1ccc2nc(NC(=O)OC)[nH]c2c1 ; organism: Vittaforma corneae ; read-out: MIC ; value: 0.055 µg/mL
C[C@@H](c1ncncc1F)[C@](O)(Cn1cncn1)c1ccc(F)cc1F ; strain or isolate: 52 clinical isolates ; organism: Candida parapsilosis ; read-out: MIC50 ; read by: broth dilution ; value: ≤0.031 µg/mL
CCOC(=O)P(=O)(O)OCCOCn1cnc2c(=O)[nH]c(N)nc21 ; strain or isolate: L2/R ; organism: Herpes simplex virus 1 ; cell line: VERO ; read-out: EC95 ; read by: cytopathic effect ; value: 661 µM
Nc1ccn(C[C@H]2COP(=O)(O)CO2)c(=O)n1 ; strain or isolate: GS ; organism: Human herpesvirus 6 ; cell line: HSB-2 ; read-out: EC50 ; read by: cytopathic effect ; value: 6.3 µM
Nc1nc(N)c2ncn([C@H]3CO[C@@H](CO)O3)c2n1 ; strain or isolate: WILD TYPE ; organism: Duck hepatitis B virus ; cell line: HepG2 ; read-out: EC50 ; value: 8.3 µM
NC(=O)c1csc([C@@H]2O[C@H](CO)[C@@H](O)[C@H]2O)n1 ; strain or isolate: COAN3739 ; organism: Pichinde virus ; cell line: VERO ; read-out: EC50 ; read by: cytopathic effect ; value: 494.5 µg/mL
C[C@@]1(CO)[C@H](O)CC[C@@]2(C)[C@H]1CC[C@H]1C[C@@H]3C[C@@]12CC[C@]3(O)CO ; strain or isolate: KOS ; organism: Herpes simplex virus 1 ; cell line: HeLa ; read-out: EC90 ; read by: virus yield ; value: 4 µM
COc1cc2oc(=O)ccc2cc1CC(O)C(C)(C)O ; strain or isolate: ESBL-75799 ; tested at: 250 µg/disc ; organism: Klebsiella pneumoniae ; read-out: zone ; read by: agar diffusion ; value: 10 mm
Nc1nc(=O)n2ccn([C@@H]3O[C@H](CO)[C@@H](O)[C@H]3O)c2n1 ; strain or isolate: New York isolates ; organism: West Nile virus ; cell line: VERO ; read-out: EC50 ; read by: cytopathic effect ; value: 8 µg/mL
COc1ccc2cc3[n+](cc2c1OC)CCc1cc2c(cc1-3)OCO2 ; tested at: 0.01 µg/mL ; organism: Vittaforma corneae ; cell line: RK-13 ; read-out: inhibition ; value: 20.3%
O=C(O)P(=O)(O)O ; strain or isolate: KOS ; organism: Herpes simplex virus 1 ; cell line: HeLa ; read-out: EC90 ; read by: virus yield ; value: 160 µM
C[C@H](Cn1cnc2c(N)ncnc21)OCP(=O)(O)O ; organism: Duck hepatitis B virus ; cell line: Primary duck hepatocytes ; read-out: EC90 ; read by: hybridisation ; value: 0.28 µM
O=c1c(O)c(-c2ccc(O)cc2)oc2cc(O)cc(O)c12 ; strain or isolate: SA-11 ; organism: Rotavirus A ; cell line: VERO ; read-out: EC50 ; value: >10 µg/mL
Nc1nc(N)c2nnn(C[C@@H](CO)OCP(=O)(O)O)c2n1 ; strain or isolate: GS ; organism: Human herpesvirus 6 ; cell line: HSB-2 ; read-out: EC50 ; read by: cytopathic effect ; value: >300 µM
O=C(Nc1ccccc1)c1ccccc1OP(=O)(Oc1ccccc1)Oc1ccccc1 ; strain or isolate: My 6509/96 ; organism: Mycobacterium kansasii ; read-out: MIC ; conditions: 14 d ; value: 250 µM
C[C@H](Cn1cnc2c(N)nc(N)nc21)OCP(=O)(O)O ; strain or isolate: GS ; organism: Human herpesvirus 6 ; cell line: HSB-2 ; read-out: EC50 ; read by: cytopathic effect ; value: >300 µM
O=c1c(O)c(-c2ccc(O)c(O)c2)oc2cc(O)cc(O)c12 ; strain or isolate: SA-11 ; tested at: 60 µg/mL ; organism: Rotavirus A ; cell line: VERO ; read-out: inhibition ; value: 70%
Nc1ncnc2c1ncn2CCOCP(=O)(O)O ; strain or isolate: WILD TYPE ; organism: Duck hepatitis B virus ; cell line: LMH ; read-out: EC50 ; value: 1.8 µM
CC(C)OC(=O)[C@H](C)N[P@](=O)(OC[C@H]1O[C@@](C#N)(c2ccc3c(N)ncnn23)[C@](C)(O)[C@@H]1OC(=O)C(C)C)Oc1ccccc1 ; strain or isolate: 1b Con1 ; organism: Hepatitis C virus ; mutations: R155K ; cell line: 1C ; read-out: fold resistance ; read by: luciferase ; value: 0.93
O=c1[nH]c(=O)n([C@H]2C[C@H](O)[C@@H](CO)O2)cc1I ; strain or isolate: GS ; organism: Human herpesvirus 6 ; cell line: HSB-2 ; read-out: EC50 ; read by: antigen / flow cytometry ; value: >1500 µM
C[C@@H](c1nc(-c2ccc(C#N)cc2)cs1)[C@](O)(Cn1cnnc1)c1ccc(F)cc1F ; strain or isolate: Isogenic isolate 4 MDR1 (25X) ; organism: Candida albicans ; read-out: MIC ; value: 0.015 µg/mL
O=C(Nc1ccc(Br)cc1)c1cc(Cl)ccc1OP(=O)(Oc1ccccc1)c1ccccc1 ; strain or isolate: My 6509/96 ; organism: Mycobacterium kansasii ; read-out: MIC ; conditions: 21 d ; value: 8 µM
Cc1c(CN(C)c2cccc3c2CCCC3)cnc2nc(N)nc(N)c12 ; tested at: 0.1 µg/mL ; organism: Encephalitozoon intestinalis ; cell line: RK-13 ; read-out: inhibition ; value: 69.5%
O=C(Nc1ccccc1)c1ccccc1OP(=O)(Oc1ccccc1)c1ccccc1 ; strain or isolate: My 235/80 ; organism: Mycobacterium kansasii ; read-out: MIC ; conditions: 7 d ; value: 500 µM
Cc1cn([C@H]2C[C@H](N=[N+]=[N-])[C@@H](CO)O2)c(=O)[nH]c1=O ; organism: SHIV ; cell line: Macrophage ; read-out: EC50 ; read by: p24 / ELISA ; value: 0.08 µM
O=C(Nc1ccc(Cl)c(Cl)c1)c1cc(Cl)ccc1OP(=O)(Oc1ccccc1)Oc1ccccc1 ; strain or isolate: My 235/80 ; organism: Mycobacterium kansasii ; read-out: MIC ; conditions: 14 d ; value: 8 µM
Cc1cn([C@H]2C[C@H](N=[N+]=[N-])[C@@H](CO)O2)c(=O)[nH]c1=O ; strain or isolate: CDC310319 ; organism: HIV-2 ; cell line: PBMC ; read-out: EC50 ; conditions: clinical isolate ; read by: cytopathic effect / XTT ; value: 0.003 µM

Repeating the final 4 entries:

O=C(Nc1ccccc1)c1ccccc1OP(=O)(Oc1ccccc1)c1ccccc1 ; strain or isolate: My 235/80 ; organism: Mycobacterium kansasii ; read-out: MIC ; conditions: 7 d ; value: 500 µM
Cc1cn([C@H]2C[C@H](N=[N+]=[N-])[C@@H](CO)O2)c(=O)[nH]c1=O ; organism: SHIV ; cell line: Macrophage ; read-out: EC50 ; read by: p24 / ELISA ; value: 0.08 µM
O=C(Nc1ccc(Cl)c(Cl)c1)c1cc(Cl)ccc1OP(=O)(Oc1ccccc1)Oc1ccccc1 ; strain or isolate: My 235/80 ; organism: Mycobacterium kansasii ; read-out: MIC ; conditions: 14 d ; value: 8 µM
Cc1cn([C@H]2C[C@H](N=[N+]=[N-])[C@@H](CO)O2)c(=O)[nH]c1=O ; strain or isolate: CDC310319 ; organism: HIV-2 ; cell line: PBMC ; read-out: EC50 ; conditions: clinical isolate ; read by: cytopathic effect / XTT ; value: 0.003 µM